Compound potency records, mixed from different reports. Data source: NIAID ChemDB in PubChem.

All rows: tests in culture; species: HIV-1

An empty or dashed field is not shown. a–b is a range or a potency band. Conditions beyond the fields shown may differ between rows. ECn is the concentration giving n% inhibition of infection, replication or growth.

SMILES	measure	changes	strain or isolate	cell line	method	result
COc1cccc2ccc(-c3nnc(-c4ccc(F)cc4)o3)nc12	EC50	-	VB59	TZM-bl	luminescence	>300 µM
COc1ccc(Nc2nnc(C(Cc3ccccc3)NS(=O)(=O)c3ccc(OC)cc3)s2)cc1	EC50	-	IIIB	MT-4	MTT	>93.25 µM
CC(C)=CCOc1cc(NC(=S)c2ccoc2C)ccc1Cl	EC50	RT-K103N	IIIB	CEM	syncytia	0.069 µM
COC(=O)[C@H](C)NP(=O)(OC[C@@H]1CC[C@H](n2ccc3c(N)ncnc32)C1)Oc1ccccc1	EC50	-	-	MT-4	cytopathic effect / MTS	9.3 µM
COc1ccc(Nc2nnc(C(C)NS(=O)(=O)c3ccc(Cl)cc3)s2)cc1	EC50	-	IIIB	MT-4	MTT	>21.38 µM
Brc1cccc(N=Cc2cc3ccccc3nc2Nc2cccc(Br)c2)c1	EC50	-	VB59	TZM-bl	luminescence	>130 µM
COc1ccc(S(=O)(=O)N(CC[C@H](O)CN(CC(C)C)S(=O)(=O)c2ccc(OC)cc2)CC2CCCC2)cc1	EC90	-	IIIB	CEM	p24	0.1 µM
CCOP(=O)(CC[C@]1(C(F)(F)F)CC[C@H](n2cnc3c(Cl)nc(N)nc32)C1)OCC	EC50	-	-	MT-4	MTT	56.2 µM
O=C(c1ccccc1)N(CCc1ccccc1)C[C@H](O)CN(CC1CCCC1)S(=O)(=O)C1CCCC1	EC50	-	IIIB	CEM	p24	<1 µM
Nc1nc2c(ncn2[C@H]2S[C@@H](CO)[C@@H]2CO)c(=O)[nH]1	EC90	-	xxBRU	PBMC	RT activity	>100 µM
COC(=O)[C@H](C)NC(=O)C[C@H](O)[C@@H](NC(=O)Oc1ccccc1)C(F)(F)F	EC50	-	LAI	CEM + CEM-SS	RT activity	>100 µg/mL
CC(=O)Nc1cnc(Oc2c(C)cc(C)cc2C)nc1Nc1ccc(C#N)cc1	EC50	-	IIIB	MT-4	MTT	9.3 µM
COc1ccc(N=Cc2cc3ccccc3nc2Nc2ccc(OC)cc2)cc1	EC50	-	UG070	TZM-bl	luminescence	>130 µM
COc1ccc(S(=O)(=O)N(CC(O)CN(CCc2ccccc2)S(=O)(=O)c2ccccc2)CC2CCCC2)cc1	EC90	-	IIIB	CEM	p24	1 µM
CC(NS(=O)(=O)c1ccc(Cl)cc1)c1nnc(Nc2ccc(Br)cc2)s1	EC50	-	IIIB	MT-4	MTT	>4.09 µM
CC(C)CN(CC(O)CN(CC(C)C)S(=O)(=O)c1ccc(N)cc1)S(=O)(=O)c1ccccc1	EC50	-	IIIB	CEM	p24	<1 µM
O=c1[nH]cnc2c1ncn2[C@H]1C[C@H](F)[C@@H](CO)O1	EC50	-	-	MT-4	-	222 µM
CCOP(=O)(CC[C@]1(C(F)(F)F)CC[C@H](n2cnc3c(N)ncnc32)C1)OCC	EC50	-	-	MT-4	MTT	9.2 µM
Nc1ncnc2c1ncn2[C@@H]1S[C@H](CO)[C@H]1CO	EC90	-	xxBRU	PBMC	RT activity	>100 µM
Nc1nc2c(ncn2[C@H]2CC[C@](CCP(=O)(O)O)(C(F)(F)F)C2)c(=O)[nH]1	EC50	-	-	MT-4	MTT	20.2 µM
CC(C)(C)C(=O)Nc1ccn([C@H]2CC[C@@H](COC(=O)C(C)(C)C)O2)c(=O)n1	EC50	-	-	-	cytopathic effect	>25 µM
C[C@H](NC(=O)C[C@H](O)[C@@H](NC(=O)Oc1ccccc1)C(F)(F)F)C(=O)O	EC50	-	LAI	CEM + CEM-SS	RT activity	>100 µg/mL
CCOC(=O)P(=O)(O)OC[C@H]1O[C@@H](n2cc(C)c(=O)[nH]c2=O)C[C@@H]1N=[N+]=[N-]	EC50	-	-	CD4/T + CD4	RT activity	0.1–1 µM
COc1ccc(/C=C/c2cc(Cl)c3ccccc3n2)cc1	EC50	-	UG070	TZM-bl	luminescence	18.62 µM
O=C(CNn1c(-c2ccccc2)nc2ccccc2c1=O)Nc1ccccc1	EC50	-	-	CEM	RT activity	70.9 µM
COc1ccc(Nc2nnc(C(C)NS(=O)(=O)c3ccc(C)cc3)s2)cc1	EC50	-	IIIB	MT-4	MTT	>41 µM
C[C@]1(CO)CO[C@H](n2cnc3c(=O)[nH]c(F)nc32)C1	EC50	-	LAV	PBMC	RT activity	2.55 µM
Cc1ccc(S(=O)(=O)NC(Cc2ccccc2)c2nnc(Nc3ccc(Br)cc3)s2)cc1	EC50	-	IIIB	MT-4	MTT	>1.58 µM
O=c1ccn([C@@H]2O[C@H](CO)C=C2Cl)c(=O)[nH]1	EC50	-	-	MT-4	-	>500 µM
COC(=O)C[C@H](O)[C@@H](NC(=O)[C@H](C)NC(=O)C[C@H](O)[C@@H](N)C(F)(F)F)C(F)(F)F	EC50	-	LAI	CEM + CEM-SS	RT activity	>100 µg/mL
COc1ccc(Nc2nnc(C(NS(=O)(=O)c3ccc(C)cc3)C(C)C)s2)cc1	EC50	-	IIIB	MT-4	MTT	>16.99 µM
CC(C)(C)C(=O)OC[C@@H]1CC[C@H](n2ccc(N)nc2=O)O1	EC50	-	-	-	cytopathic effect	<6.4 µM
Oc1cc(/C=C/c2cc(O)c(O)c(O)c2)cc(O)c1O	EC50	-	NL4-3	TZM-bl	luciferase	0.29 µM
Cc1cn([C@H]2C[C@H](N=[N+]=[N-])[C@@H](CO)O2)c(=O)[nH]c1=O	EC50	-	IIIB	C8166	absorbance	0.017 µM
Cc1cn(CCCCB(O)O)c(=O)[nH]c1=O	EC50	-	IIIB	CEM + CEM-SS	plaque count	82 µM
COc1cc(Br)ccc1/C=C/c1cc(Cl)c2cc(Cl)ccc2n1	EC50	-	VB59	TZM-bl	luminescence	8.31 µM
COC(=O)C(C)(C)NP(=O)(OC[C@H]1C=C[C@@H](n2ccc3c(N)ncnc32)C1)Oc1ccccc1	EC50	-	-	MT-4	cytopathic effect / MTS	0.3 µM
O=S(=O)(O)O.O=S(=O)(O)O.O=S(=O)(O)O.O=S(=O)(O)O.O=S(=O)(O)O.O=S(=O)(O)O.OC[C@H]1O[C@@H]2O[C@H]3[C@H](O)[C@@H](O)[C@@H](O[C@H]4[C@H](O)[C@@H](O)[C@@H](O[C@H]5[C@H](O)[C@@H](O)[C@@H](O[C@H]6[C@H](O)[C@@H](O)[C@@H](O[C@H]7[C@H](O)[C@@H](O)[C@@H](O[C@H]1[C@H](O)[C@H]2O)O[C@@H]7CO)O[C@@H]6CO)O[C@@H]5CO)O[C@@H]4CO)O[C@@H]3CO	EC50	-	IIIB	MT-4	cytopathic effect / MTT	26.2 µg/mL
CC1=CN([C@H]2C[C@H](N=[N+]=[N-])[C@@H](CO)O2)Cn2nnnc21	EC50	-	-	MT-4	-	8.5 µM
Cc1nn2cc1CCCCCCC1(C)CCN(CC1)c1c([C@H](OC(C)(C)C)C(=O)O)c(C)nc3cc(nn13)-c1cccc-2c1	EC50	-	-	MT-2	luciferase	0.004 µM
Cc1cc(Br)cc(C)c1Oc1ncc([N+](=O)[O-])c(Nc2ccc(C#N)cc2)n1	EC50	-	IIIB	MT-4	MTT	0.063 µM
NC1=CS(=O)(=O)OC12[C@@H](CO)O[C@@H](n1ccc(=O)[nH]c1=O)[C@@H]2O	EC50	-	IIIB	MT-4	cytopathic effect / trypan blue	>100 µg/mL
CSCO[C@H]1C[C@H](n2cc(C)c(=O)[nH]c2=O)O[C@@H]1CO	EC50	-	-	MT-4	-	>500 µM
CC(C)C(NS(=O)(=O)c1ccc(Cl)cc1)c1nnc(Nc2ccc(Br)cc2)s1	EC50	-	IIIB	MT-4	MTT	>4.98 µM
Cc1cc(C)c(Oc2ncc(N)c(Nc3ccc(C#N)cc3)n2)c(C)c1	EC50	-	IIIB	MT-4	MTT	0.007 µM
C=C1C(=O)O[C@H]2[C@@H]1[C@H](OC(=O)C(C)C)[C@@H]1[C@@](C)([C@@H](OC(C)=O)CC[C@]1(C)O)[C@H]2O	EC50	-	IIIB	C8166	absorbance	8.56 µM
CCCCC/C=C/C=C1/C(=O)CCC1C/C=C\CCCC(=O)O	EC50	-	-	U-937	luciferase	3.1 µM
Clc1cc(/C=C/c2cccc3ccccc23)nc2ccccc12	EC50	-	UG070	TZM-bl	luminescence	76 µM
C[C@H]1[C@@H](OC(=O)CCC(=O)O)O[C@@H]2O[C@@]3(C)CC[C@H]4[C@H](C)CC[C@@H]1[C@@]24OO3	EC50	-	BaL	PM1	p24	>0.6 µM
Nc1ccn([C@@H]2O[C@H](CO)C=C2Cl)c(=O)n1	EC50	-	-	MT-4	-	>500 µM
CC(=O)Nc1cnc(Oc2c(Cl)cc(Cl)cc2Cl)nc1Nc1ccc(C#N)cc1	EC50	-	IIIB	MT-4	MTT	1.9 µM
CC(NS(=O)(=O)c1ccc(Cl)cc1)c1nnc(Nc2ccc(F)cc2)s1	EC50	-	IIIB	MT-4	MTT	>6.85 µM
Cc1ccnc2c1NC(=O)c1cccnc1N2C1CC1	EC50	-	RES056	MT-4	MTT	4 µM
Cc1cn([C@H]2S[C@@H](CO)[C@@H]2CO)c(=O)[nH]c1=O	EC90	-	xxBRU	PBMC	RT activity	>100 µM
N#Cc1ccc(Nc2nc(Oc3c(Cl)cc(Cl)cc3Cl)ncc2NC(=O)C(F)(F)F)cc1	EC50	-	RES056	MT-4	MTT	24 µM
COc1ccc(S(=O)(=O)N(CC(C)C)C[C@@H](O)CCN(CC2CCCC2)S(=O)(=O)Cc2cccc3n[nH]nc23)cc1	EC90	-	IIIB	CEM	p24	1 µM
Nc1ccn([C@H]2CC[C@@H](CO)O2)c(=O)n1	EC50	-	-	-	cytopathic effect	<16 µM
Cc1occc1C(=S)Nc1ccc(Cl)c(/C=N/OC(C)(C)C)c1	EC50	RT-L100I	IIIB	CEM	syncytia	0.242 µM
C=CCN(C(=O)OCc1ccc([N+](=O)[O-])cc1)C1CCN(C[C@H]2CN(C(=O)C3CCCC3)C[C@]2(O)c2ccccc2)CC1	EC50	-	TK1135 R5	PBMC	p24	0.0084 µM
COC(=O)[C@H](C)NP(=O)(OC[C@@H]1CC[C@H](n2cnc3c(N)ncnc32)C1)Oc1ccccc1	EC50	-	-	MT-4	cytopathic effect / MTS	0.2 µM
O=C(O)C[C@H](O)[C@@H](NC(=O)Oc1ccccc1)C(F)(F)F	EC50	-	IIIB	MT-4	RT activity	>100 µg/mL
O=c1[nH]cnc2c1ncn2[C@@H]1S[C@H](CO)[C@H]1CO	EC90	-	xxBRU	PBMC	RT activity	>100 µM
COc1ccc(S(=O)(=O)N(CC(C)C)C[C@@H](O)CCN(CC2CCCC2)S(=O)(=O)c2ccc(N)cc2)cc1	EC50	-	IIIB	CEM	p24	<1 µM
O=S(=O)([O-])OC[C@@H]1C[C@H](O)[C@@H](OS(=O)(=O)[O-])[C@H](O[C@H]2[C@H](O)[C@@H](O)[C@H](O[C@@H]3OC[C@@H](O[C@H]4[C@@H](OS(=O)(=O)[O-])[C@@H](OS(=O)(=O)[O-])[C@H](O)O[C@@H]4CO)[C@H](O)[C@H]3O)O[C@@H]2CO)O1	EC50	-	-	PBMC	p24 / ELISA	>20 µg/mL

The last 4 rows once more:

SMILES,measure,changes,strain or isolate,cell line,method,result
O=C(O)C[C@H](O)[C@@H](NC(=O)Oc1ccccc1)C(F)(F)F,EC50,-,IIIB,MT-4,RT activity,>100 µg/mL
O=c1[nH]cnc2c1ncn2[C@@H]1S[C@H](CO)[C@H]1CO,EC90,-,xxBRU,PBMC,RT activity,>100 µM
COc1ccc(S(=O)(=O)N(CC(C)C)C[C@@H](O)CCN(CC2CCCC2)S(=O)(=O)c2ccc(N)cc2)cc1,EC50,-,IIIB,CEM,p24,<1 µM
O=S(=O)([O-])OC[C@@H]1C[C@H](O)[C@@H](OS(=O)(=O)[O-])[C@H](O[C@H]2[C@H](O)[C@@H](O)[C@H](O[C@@H]3OC[C@@H](O[C@H]4[C@@H](OS(=O)(=O)[O-])[C@@H](OS(=O)(=O)[O-])[C@H](O)O[C@@H]4CO)[C@H](O)[C@H]3O)O[C@@H]2CO)O1,EC50,-,-,PBMC,p24 / ELISA,>20 µg/mL